Measured values from several laboratories, pooled; numbers as filed in NIAID ChemDB.

All rows: whole-cell or culture tests; agent: Candida albicans; endpoint: MIC

Conditions beyond the fields shown may differ between rows.

{"structure": "Cc1nc(Cl)c2sc(=S)n(-c3ccccc3)c2n1", "strain": "DSM 70443", "result": "180 µg/mL"}
{"structure": "CN(C)c1ccc(CN2CCN(Cc3ccc(N(C)C)cc3)[C]2=[Ru]([Cl])[Cl])cc1.Cc1c(C)c(C)c(C)c(C)c1C", "result": "200 µg/mL"}
{"structure": "CC(C)=CCC/C(C)=C/CN=C(N)NC/C=C(\\C)CCC=C(C)C", "strain": "ATCC 90028", "result": "250 µg/mL"}
{"structure": "CCn1c(SCC(=O)c2ccc(C)cc2)nc2c(sc(=S)n2C)c1=O", "strain": "ATCC 90018", "result": "≥512 µg/mL"}
{"structure": "Cc1c(Cl)[n+](=O)c2cc(Cl)ccc2n1[O-]", "strain": "Clinical isolate 16", "result": "7.8 µg/mL"}
{"structure": "COc1c(CN(C)C)cccc1C1OC(c2ccncc2)=NN1C(C)=Nc1cccc(F)c1", "strain": "MTCC 227", "result": "6.25 µg/mL"}
{"structure": "CN(CCCC#CC(C)(C)C)c1cccc2c1CCC(=O)N2", "strain": "Clinical isolate 6", "result": "31.25 µg/mL"}
{"structure": "Cc1nc(=S)c2sc(=S)n(-c3ccccc3)c2[nH]1", "strain": "DSM 70443", "result": "80 µg/mL"}
{"structure": "COC(=O)c1ccc(C[C@H](C(=O)OC)[C@@H](O)C(=O)OC)cc1", "strain": "ATCC 10231", "result": "2 µg/mL"}
{"structure": "CC(C)(C)Sc1ccnc(C(N)=S)c1", "strain": "ATCC 44859", "result": "62.5 µM"}
{"structure": "Cc1c(S(=O)(=O)c2ccccc2)[n+](=O)c2cc(Cl)ccc2n1[O-]", "strain": "Clinical isolate 14", "result": "31.25 µg/mL"}
{"structure": "CCN1C(=O)CS/C1=N\\NC(=O)Cc1csc2nc(-c3ccc(Br)cc3)cn12", "strain": "ATCC 10231", "result": ">32 µg/mL"}
{"structure": "CCN(CC)C(=O)/C=C/c1ccccc1", "result": "0.002 µg/mL"}
{"structure": "CCNC(=S)NNC(=O)Cc1csc2nc(-c3ccc(Br)cc3)cn12", "strain": "ATCC 10231", "result": ">32 µg/mL"}
{"structure": "CCCCSc1ccnc(C(N)=S)c1", "strain": "ATCC 44859", "result": ">500 µM"}
{"structure": "CC(=O)N1N=C(c2ccc(F)cc2)OC1c1ccc([N+](=O)[O-])cc1", "strain": "ATCC 2091", "result": "250 µg/mL"}
{"structure": "C[C@@H]1Oc2ccccc2/C(=N/OCc2cccc(F)c2)[C@H]1n1ccnc1", "strain": "ATCC 10231", "result": "16 µg/mL"}
{"structure": "CC(C)=CCN=C(NCC=C(C)C)NCC=C(C)C", "strain": "ATCC 90028", "result": "250 µg/mL"}
{"structure": "Cn1cnc2c(sc(=S)n2C)c1=O", "strain": "ATCC 90018", "result": "4 µg/mL"}
{"structure": "COCCN1CCN(C)[C]1=[Ru]([Cl])[Cl].Cc1ccc(C(C)C)cc1", "result": ">800 µg/mL"}
{"structure": "CC(=O)N1N=C(c2ccc(F)cc2)OC1c1cccc([N+](=O)[O-])c1", "strain": "ATCC 2091", "result": "250 µg/mL"}
{"structure": "CCn1c(SCC(=O)c2ccc(Cl)cc2)nc2c(sc(=S)n2C)c1=O", "strain": "ATCC 90018", "result": "256 µg/mL"}
{"structure": "COc1c(CN(C)C)cccc1C1OC(c2ccncc2)=NN1C(C)=Nc1ccc(F)cc1", "strain": "MTCC 227", "result": "3.12 µg/mL"}
{"structure": "Cn1c(SCC(=O)c2ccc(Br)cc2)nc2c(sc(=S)n2C)c1=O", "strain": "ATCC 90018", "result": "256 µg/mL"}
{"structure": "C[C@@H]1Oc2cc(Cl)ccc2/C(=N/OCc2ccccc2)[C@H]1n1ccnc1", "strain": "ATCC 10231", "result": "0.25 µg/mL"}
{"structure": "CCCCCCCCCCSc1ccnc(C(N)=S)c1", "strain": "ATCC 44859", "result": ">500 µM"}
{"structure": "O=C(Cc1csc2nc(-c3ccc(Br)cc3)cn12)N/N=C1\\SCC(=O)N1c1ccccc1", "strain": "ATCC 10231", "result": ">32 µg/mL"}
{"structure": "C[C@@H]1Oc2ccccc2/C(=N/OCc2ccc(Cl)cc2)[C@H]1n1ccnc1", "strain": "ATCC 10231", "result": "2 µg/mL"}
{"structure": "O=C(Cc1csc2nc(-c3ccc(Br)cc3)cn12)NNC(=S)Nc1ccccc1", "strain": "ATCC 10231", "result": "32 µg/mL"}
{"structure": "Cc1cc(-c2cc(C)on2)n(C)n1", "result": ">200 µM"}
{"structure": "Cc1c(S(=O)(=O)c2ccccc2)[n+](=O)c2ccccc2n1[O-]", "strain": "Clinical isolate 19", "result": "7.8 µg/mL"}
{"structure": "Cc1cc(-c2cc(C)n(CCO)n2)no1", "result": ">200 µM"}
{"structure": "CC(=O)N1N=C(c2ccc(F)cc2)OC1c1ccccc1[N+](=O)[O-]", "strain": "ATCC 2091", "result": "125 µg/mL"}
{"structure": "Clc1ccc(C(Cn2ccnc2)OCc2ccc(-c3ccccc3)cc2)c(Cl)c1", "strain": "CA7", "result": "64 µg/mL"}
{"structure": "Cc1cc(-c2c(N=O)c(C)nn2C)no1", "result": "25 µM"}
{"structure": "COc1cc(O)c2c(c1)C(=O)c1c(cc3c(c1O)-c1c(cc(C)c(C(=O)NC(CO)C(=O)O)c1O)[C@H](OC1OC(C)C(O)C(OC4OCC(O)C(O)C4O)C1O)C3O)C2=O", "strain": "ATCC 24433", "result": "3.12 µg/mL"}
{"structure": "Cc1nc(N=[N+]=[N-])c2sc(=S)n(-c3ccccc3)c2n1", "strain": "DSM 70443", "result": ">200 µg/mL"}
{"structure": "Fc1ccccc1CC(Cc1ccc(-c2ccccc2)cc1)n1ccnc1", "result": "≥5.5 µM"}
{"structure": "O=[N+]([O-])c1ccc(/C=N/NC(=S)N2CCCC2)o1", "result": "100 µg/mL"}
{"structure": "Cc1cc(-c2c(N=O)c(C)nn2CCO)no1", "result": "66 µM"}
{"structure": "Clc1ccccc1CC(Cc1ccc(-c2ccccc2)cc1)n1ccnc1", "result": "19.2 µM"}
{"structure": "O=C(N/N=C/c1ccc([N+](=O)[O-])o1)c1ccc(F)cc1", "strain": "ATCC 2091", "result": "62.5 µg/mL"}
{"structure": "CCCCCCCCCCCCC(OC)C(=O)O", "strain": "ATCC 14053", "result": "110 µM"}
{"structure": "CC(CCC(=O)NCCCNCCCCNCCCN)[C@H]1CCC2C3CC[C@@H]4C[C@H](OS(=O)(=O)O)CC[C@]4(C)C3C[C@H](C)[C@@]21C", "strain": "90028", "result": "100 µg/mL"}
{"structure": "C[C@@H]1Oc2ccccc2/C(=N/OCc2ccccc2F)[C@H]1n1ccnc1", "strain": "ATCC 10231", "result": "16 µg/mL"}
{"structure": "CCCCCCCCCCCCC(OC)C(=O)O", "strain": "ATCC 14053", "result": ">110 µM"}
{"structure": "CCOc1cc2c(cc1F)n([O-])c(C)c(S(=O)(=O)c1ccccc1)[n+]2=O", "strain": "Clinical isolate 16", "result": "15.6 µg/mL"}
{"structure": "C=C1[C@@H](C)CC[C@@]2(C)[C@H]1CC=C1CO[C@@H](O)[C@@]12O", "strain": "B311", "result": "50 µg/mL"}
{"structure": "C[C@@H]1[C@H](O)[C@@H](C)/C=C/C=C/C=C/C=C/C=C/C=C/C=C/[C@H](O[C@@H]2O[C@H](C)[C@@H](O)[C@H](N)[C@@H]2O)C[C@@H]2O[C@](O)(C[C@@H](O)C[C@@H](O)[C@H](O)CC[C@@H](O)C[C@@H](O)CC(=O)O[C@H]1C)C[C@H](O)[C@H]2C(=O)O", "strain": "ATCC 10231", "result": "2.5 µg/mL"}
{"structure": "COc1ccc(CN2CCN(Cc3ccc(OC)cc3)[C]2=[Ru]([Cl])[Cl])cc1.Cc1c(C)c(C)c(C)c(C)c1C", "result": "200 µg/mL"}
{"structure": "Cc1nc2c(sc(=S)n2-c2ccccc2)c(=O)[nH]1", "strain": "DSM 70443", "result": ">200 µg/mL"}
{"structure": "CCCCNC(=S)NNC(=O)Cc1csc2nc(-c3ccc(Br)cc3)cn12", "strain": "ATCC 10231", "result": ">32 µg/mL"}
{"structure": "C=C1C2CC[C@H](C=O)C(O)(C=O)[C@@]2(C)CC[C@@H]1C", "strain": "B311", "result": "0.39 µg/mL"}
{"structure": "CC(C)(C)c1ccc(COC(Cn2ccnc2)c2ccc(Cl)cc2)cc1", "strain": "PR1", "result": ">128 µg/mL"}
{"structure": "CCCN(CCC)C(=S)N/N=C/c1ccc([N+](=O)[O-])o1", "result": "40 µg/mL"}
{"structure": "O=C(/C=C/c1ccccc1)Nc1ccccc1[N+](=O)[O-]", "result": "0.003 µg/mL"}
{"structure": "COc1ccccc1CC(Cc1ccc(-c2ccccc2)cc1)n1ccnc1", "result": "≥5.5 µM"}
{"structure": "COc1ccc(CN2CCN(Cc3ccc(OC)cc3)[C]2=[Ru]([Cl])[Cl])cc1.Cc1ccc(C(C)C)cc1", "result": "800 µg/mL"}
{"structure": "O=C(O)/C(O)=C(\\O)c1ccccc1", "result": "0.003 µg/mL"}
{"structure": "C[C@@H](c1ncncc1F)[C@](O)(Cn1cncn1)c1ccc(F)cc1F", "strain": "ATCC 36082", "result": "1 µg/mL"}
{"structure": "c1ccc(-c2ccc(COC(Cn3ccnc3)c3ccccc3)cc2)cc1", "strain": "Y0109", "result": ">128 µg/mL"}
{"structure": "CC(=O)Nc1ccc(/C=N/NC(N)=S)cc1", "result": "100 µg/mL"}
{"structure": "C=C[n+]1ccncc1.Cc1ccc(C(C)C)cc1.[Cl][Ru][Cl]", "result": "200 µg/mL"}
{"structure": "CN1CCN(C(=O)N/N=C/c2ccc([N+](=O)[O-])o2)CC1", "result": "100 µg/mL"}
{"structure": "Cc1cc(-c2cc(C)on2)n(CCO)n1", "result": ">200 µM"}
{"structure": "O=C(O)/C=C/c1ccccc1", "result": "0.002 µg/mL"}
{"structure": "CN(C)C(=S)N/N=C/c1ccc([N+](=O)[O-])o1", "result": "100 µg/mL"}
{"structure": "Cc1cc(-c2cc(C)n(C)n2)no1", "result": ">200 µM"}
{"structure": "C[C@@H]1Oc2ccccc2/C(=N/OCc2c(Cl)cccc2Cl)[C@H]1n1ccnc1", "strain": "ATCC 10231", "result": "64 µg/mL"}
{"structure": "COc1cc(O)c2c(c1)C(=O)c1c(cc3c(c1O)-c1c(cc(C)c(C(=O)NCC(=O)O)c1O)[C@H](O[C@@H]1O[C@H](C)[C@H](N)[C@H](O[C@@H]4OC[C@@H](O)[C@H](O)[C@H]4O)[C@H]1O)[C@H]3O)C2=O", "strain": "IAM4888", "result": "3.1 µg/mL"}
{"structure": "CCCCCCCCCCSCC(OC)C(=O)O", "strain": "ATCC 60193", "result": "0.00124 µM"}
{"structure": "Cc1nc2c(sc(=S)n2C2CC2)c(=O)[nH]1", "strain": "DSM 70443", "result": ">200 µg/mL"}
{"structure": "Clc1ccc(C(Cn2ccnc2)OC/C=C/c2ccccc2)c(Cl)c1", "strain": "5M", "result": "4 µg/mL"}
{"structure": "CCCCN1C(=O)CS/C1=N\\NC(=O)Cc1csc2nc(-c3ccc(Br)cc3)cn12", "strain": "ATCC 10231", "result": ">32 µg/mL"}
{"structure": "CCn1c(SCC(=O)c2ccccc2)nc2c(sc(=S)n2C)c1=O", "strain": "ATCC 90018", "result": "256 µg/mL"}

Repeating the final 11 entries:

Cc1cc(-c2cc(C)on2)n(CCO)n1 ; result: >200 µM
O=C(O)/C=C/c1ccccc1 ; result: 0.002 µg/mL
CN(C)C(=S)N/N=C/c1ccc([N+](=O)[O-])o1 ; result: 100 µg/mL
Cc1cc(-c2cc(C)n(C)n2)no1 ; result: >200 µM
C[C@@H]1Oc2ccccc2/C(=N/OCc2c(Cl)cccc2Cl)[C@H]1n1ccnc1 ; strain: ATCC 10231 ; result: 64 µg/mL
COc1cc(O)c2c(c1)C(=O)c1c(cc3c(c1O)-c1c(cc(C)c(C(=O)NCC(=O)O)c1O)[C@H](O[C@@H]1O[C@H](C)[C@H](N)[C@H](O[C@@H]4OC[C@@H](O)[C@H](O)[C@H]4O)[C@H]1O)[C@H]3O)C2=O ; strain: IAM4888 ; result: 3.1 µg/mL
CCCCCCCCCCSCC(OC)C(=O)O ; strain: ATCC 60193 ; result: 0.00124 µM
Cc1nc2c(sc(=S)n2C2CC2)c(=O)[nH]1 ; strain: DSM 70443 ; result: >200 µg/mL
Clc1ccc(C(Cn2ccnc2)OC/C=C/c2ccccc2)c(Cl)c1 ; strain: 5M ; result: 4 µg/mL
CCCCN1C(=O)CS/C1=N\NC(=O)Cc1csc2nc(-c3ccc(Br)cc3)cn12 ; strain: ATCC 10231 ; result: >32 µg/mL
CCn1c(SCC(=O)c2ccccc2)nc2c(sc(=S)n2C)c1=O ; strain: ATCC 90018 ; result: 256 µg/mL